Results of unrelated studies side by side (data: NIAID ChemDB).

All rows: whole-cell or culture tests; organism: Mycobacterium tuberculosis

Lines come from different laboratories, so protocols vary.

SMILES,setting,tested at,changes,read-out,cell line,strain,method,result
Clc1cc(Cl)c2c(N/N=C/c3ccc4c(c3)OCO4)ccnc2c1,,,,MIC,VERO,H37Rv,,>12.5 µg/mL
CC1=C(CCC(=O)O)c2cc3nc(cc4[nH]c(cc5[nH]c(cc1n2)c(C)c5C(C)O)c(C)c4C(C)O)C(C)=C3CCC(=O)O,,12.8 µg/mL,,inhibition,,H37Rv,BACTEC,7%
Cc1cc(N/N=C/c2ccc3c(c2)OCO3)c2c(Cl)cc(Cl)cc2n1,,,,MIC,VERO,H37Rv,,>12.5 µg/mL
CC(C)c1ccc2c(c1)CC[C@H]1[C@](C)(CNCCNCC3CCCO3)CCC[C@]21C,,,,MIC,,,,25 µM
Cc1ccc2c(c1)n([O-])c(C)c(Cl)[n+]2=O,,,,MIC,,H37Rv,,3.13 µg/mL
Fc1ccccc1CCNCCNCCc1ccc(Cl)cc1Cl,,,,MIC,,,,50 µM
COC(=O)c1ccc(N(C)CC/C(CNc2nc(N)[nH]c(=O)c2[N+](=O)[O-])=N\NC(N)=O)cc1,,,,MIC bound,,H37Rv,BACTEC,>12.5 µg/mL
CC1CCCC(NCCNC2CCCCCCC2)C1C,,,,MIC,,,,25 µM
CSCCNC(=O)CS(=O)(=O)c1ccc(N)cc1,,,,MIC bound,,H37Rv,BACTEC,>12.5 µg/mL
CC1COc2c(N3CCN(C)CC3)c(F)cc3c(=O)c(C(=O)O)cn1c23,,,,MIC,,H37Rv (ATCC 27294),broth dilution,0.5–1 µM
O=C(O)c1ccccc1O,,80 µM,,inhibition,,7800,,6%
NNC(=O)C(=O)N/N=C(\CC1(O)C(=O)Nc2ccccc21)c1ccccc1O,,,,MIC bound,,H37Rv,BACTEC,>12.5 µg/mL
COc1nc2ccc(Br)cc2cc1C(c1ccccc1)C(O)(CCN1CCCCC1)c1ccccc1,,,,MIC90,,H37Rv,,8.65 µg/mL
Cc1c(Cl)[n+](=O)c2cc(Cl)ccc2n1[O-],,,,MIC,,H37Rv,,1.56 µg/mL
Fc1ccc(CNCCNCc2ccco2)cc1,,,,MIC,,,,50 µM
Cc1cc(N/N=C/c2ccccc2)c2cc(C3CCCCC3)ccc2n1,,12.5 µg/mL,,inhibition,VERO,H37Rv,,100%
CC(C)c1ccc2c(c1)CC[C@H]1[C@](C)(CNCCNCC(c3ccccc3)c3ccccc3)CCC[C@]21C,,,,MIC,,,,12.5 µM
Cc1c(Cl)[n+](=O)c2cc(F)c(F)cc2n1[O-],,,,MIC,,H37Rv,,1.56 µg/mL
Clc1ccc(Nc2nnc(-c3ccncc3)o2)cc1Cl,21 d,,,MIC100,,My 331/88,broth dilution,>125 µM
O=C(c1ccncc1)N1N=C(c2ccco2)CC1(O)C(Cl)(Cl)Cl,,,,MIC,,RGH102,,>268 µM
CC(=O)NC[C@H]1CN(c2ccc(N3CCOCC3)c(F)c2)C(=O)O1,,,,MIC,,AZD5847-resistant 8.8,,16 µg/mL
COc1ccc(/C=N/Nc2ccnc3ccc(C4CCCCC4)cc23)c2ccccc12,,,,MIC,VERO,H37Rv,,3.13 µg/mL
O=C1c2ccccc2OC(c2ccccc2)C1I,,,,EC50,,H37Rv,,>12.5 µg/mL
O=C(Oc1ccc(Cl)cc1C(=O)Nc1ccc(C(F)(F)F)cc1)c1cnccn1,14 d,,,MIC,,multidrug resistant 234/2005,,0.25 µM
CN(C)c1ccc(N=C2C=CC(=O)O2)cc1,,6.25 µg/mL,,inhibition,,H37Rv,resazurin,-26%
C=CCOc1cccc(/C=C2/NC(=S)NC2=O)c1,,6.25 µg/mL,,inhibition,,H37Rv,,93%
COc1cc(OC)c2c(c1)OC(c1cc(OC)c(OC)c(OC)c1)CC2=O,,,,EC50,,,,>12.5 µg/mL
Cc1ccc2c(c1)n([O-])c(CBr)c(Sc1ccccc1)[n+]2=O,,,,MIC,,H37Rv,,>6.25 µg/mL
N=Nc1c(O)n(O)c2ccccc12,,,,MIC bound,,H37Rv,BACTEC,>12.8 µg/mL
CCCCCC(C)NCCNC1(C)CN(CC(CC)CCCC)CN(CC(CC)CCCC)C1,,,,MIC,,,,25 µM
CCCCOc1ccc2nc(C)cc(N/N=C/c3ccc(OC)c4ccccc34)c2c1,,12.5 µg/mL,,inhibition,VERO,H37Rv,,100%
O=C(Oc1cc(Cl)ccc1C(=O)Nc1ccc(Cl)cc1)c1cnccn1,21 d,,,MIC,,H37Rv 331/88,,4 µM
COC(=O)C(=Cc1cc(OC)c(OC)c(OC)c1-c1cc2c(cc1C1(C)OCCS1)OCO2)C(=O)OC,,12.5 µg/mL,,inhibition,,H37Rv,BACTEC,25%
NNc1ccnc2cc(Cl)cc(Cl)c12,,,,MIC,VERO,H37Rv,,>12.5 µg/mL
OCc1ccc2ccc3ccc(CO)nc3c2n1,,12.5 µg/mL,,inhibition,,H37Rv,BACTEC,74%
COc1cc(C2=NN(C(=O)COc3ccc4ccccc4c3)[C@H](c3ccc(O)cc3)C2)c(C)cc1OCC(=O)O,,,,MIC,,Isoniazid-resistant,,>6.25 µg/mL
Clc1ccccc1CCNCCNCCCCc1ccccc1,,,,MIC,,,,25 µM
CC1COc2c(N3CCN(C)CC3)c(F)cc3c(=O)c(C(=O)O)cn1c23,,,,MIC,,2923-5,,1 µg/mL
O=C(c1ccncc1)N1N=CCC1(O)C(F)(F)F,,,,MIC,,H37Rv,,0.77 µM
Nc1ccc2nnnn2n1,,,,MIC bound,,H37Rv,BACTEC,>12.5 µg/mL
NC(=O)c1cnccn1,,,,MIC,,ATCC 35801 niacin-positive,,128 µg/mL
O=C(NNC(=O)c1ccncc1)Nc1ccc(Br)c(C(F)(F)F)c1,21 d,,,MIC100,,My 331/88,broth dilution,8 µM
CC12CC[C@H](C(=O)OC1=O)C2(C)C,,,,MIC bound,,H37Rv,resazurin,>6.25 µg/mL
Cc1c(Sc2ccccc2)[n+](=O)c2cc(Cl)ccc2n1[O-],,6.25 µg/mL,,inhibition,,H37Rv,,100%
O=C(Oc1ccc(Br)cc1C(=O)Nc1ccc(C(F)(F)F)cc1)c1cnccn1,14 d,,,MIC,,multidrug resistant 7357/1998,,0.125 µM
O=C(c1ccncc1)N1N=C(c2cccs2)CC1(O)C(Cl)(Cl)Cl,,,,MIC,,RGH103,,>257 µM
Cc1c(Sc2ccccc2)[n+](=O)c2cc(F)c(F)cc2n1[O-],,,,MIC,,H37Rv,,0.78 µg/mL
CN(CC(=O)NN)c1ccc2ccccc2c1,,,,EC50,,Drug-resistant,,2 µg/mL
C/C(=C\c1ccccc1)C1NC(=S)NC1=O,,6.25 µg/mL,,inhibition,,H37Rv,,95%
CC(=O)NC[C@H]1CN(c2ccc(N3CCN(Cc4ccc([N+](=O)[O-])o4)CC3)c(F)c2)C(=O)O1,,,,Geometric mean MIC,,59 isolates,,2.303 µg/mL
O=C1CC(c2ccc(O)cc2)Oc2ccccc21,,12.5 µg/mL,,inhibition,,H37Rv,,18%
CSc1nc2ccc(Br)cc2cc1C(c1ccccc1)C(O)(CCN(C)C)c1cccc2ccccc12,,,,MIC90,,H37Rv,,45.4 µg/mL
Fc1cc(Nc2nnc(-c3ccncc3)o2)ccc1Br,21 d,,,MIC100,,My 331/88,broth dilution,>125 µM
Cc1ccc(C2=NN(C(=O)c3ccncc3)C(O)(C(Cl)(Cl)Cl)C2)cc1,,,,MIC,,H37Rv,,>252 µM
COc1cc(OC)c2c(c1)OC1OC(=O)CC21,,12.5 µg/mL,,inhibition,,H37Rv,BACTEC,-10%
COc1nc2ccc(Br)cc2cc1C(c1ccccc1)C(O)(CCCN1CCCC1)c1ccc2ccccc2c1,,,,MIC90,,H37Rv,,47.31 µg/mL
NC(=O)c1cnccn1,,,,MIC,,TB206,,400 µg/mL
NC(=S)NNC(=S)S,,,,MIC,,H37Rv,BACTEC,≥12.5 µg/mL
Cc1ccc2c(=O)n(-c3cccc(F)c3)c(=O)oc2c1,,,,MIC,,CNCTC MY331/88,,16 µM
O=C(Oc1ccc(Cl)cc1C(=O)Nc1cccc(C(F)(F)F)c1)c1cnccn1,21 d,,,MIC,,multidrug resistant 9449/2006,,2 µM
COc1ccc2c(c1)OC(c1cccc([N+](=O)[O-])c1)CC2=O,,,,EC50,,,,>12.5 µg/mL
O=C1NC(=S)N/C1=C/c1ccc(-c2ccccc2)cc1,,6.25 µg/mL,,inhibition,,H37Rv,,97%
Oc1c(Cl)c2nc3ccccc3nc2c2ccccc12,,12.5 µg/mL,,inhibition,,H37Rv,BACTEC,99%
CC1(C)[C@H]2CC[C@@H](CNCCNCCc3ccc(Cl)cc3Cl)[C@@H]1C2,,,,MIC,,,,25 µM
CCC#CC#CCN(C)c1cccc2c1CCC(=O)N2,,6.25 µg/mL,,inhibition,,H37Rv,,27%
Nc1nc(Cl)c(Cl)nc1N,,,,MIC bound,,H37Rv,BACTEC,>6.25 µg/mL
CO[C@H]1/C=C/O[C@@]2(C)Oc3c(C)c(O)c4c(O)c(c(/C=N/N5CCN(C/C=C/c6ccccc6)CC5)c(O)c4c3C2=O)NC(=O)/C(C)=C\C=C\[C@H](C)[C@H](O)[C@@H](C)[C@@H](O)[C@@H](C)[C@H](OC(C)=O)[C@@H]1C,,,,MIC,,MTB37 (RIF-R),,0.25 µg/mL
COc1ccc2oc(=O)n(-c3ccc(Cl)c(Cl)c3)c(=O)c2c1,,,,MIC,,CNCTC MY331/88,,62.5 µM
Cc1nc(Nc2ccccc2)sc1C(=O)CC(=O)C(=O)Nc1c(C(C)C)cccc1C(C)C,,,,MIC bound,,H37Rv,resazurin,>6.25 µg/mL
O=C(NC1CCCCC1)N(C(=O)c1cnccn1)C1CCCCC1,21 d,,,MIC,,331/88,,500 µM
O=c1oc2ccc(Br)cc2c(=O)n1-c1ccc(Br)cc1,,,,MIC,,CNCTC MY331/88,,4 µM
Cc1c(Sc2ccccc2)[n+](=O)c2ccc(C(F)(F)F)cc2n1[O-],,6.25 µg/mL,,inhibition,,H37Rv,,100%
NC(=O)NC(=O)C1CCN(S(=O)(=O)c2ccccc2)CC1,,,,MIC bound,,H37Rv,BACTEC,>12.5 µg/mL
CCCCCCCCCCCNCCNCCc1cccc(F)c1,,,,MIC,,,,25 µM
O=[n+]1c(Sc2ccccc2)c(CBr)n([O-])c2ccccc21,,,,MIC,,H37Rv,,>6.25 µg/mL
CCOC(=O)CCCOc1ccc(/C=C2/NC(=S)NC2=O)cc1,,6.25 µg/mL,,inhibition,,H37Rv,,77%
CC(Nc1ccc2ccccc2c1)C(=O)NN,,,,EC50,,Drug-resistant,,0.5 µg/mL
O=C(Oc1ccc(Cl)cc1C(=O)Nc1ccc(Cl)c(Cl)c1)c1cnccn1,14 d,,,MIC,,multidrug resistant 234/2005,,0.125 µM
COc1ccc2c(N/N=C/c3ccc(OC)c4ccccc34)ccnc2c1,,,,MIC,VERO,H37Rv,,0.78 µg/mL
CN(C)CCC(O)(c1cccc2ccccc12)C(c1ccccc1)c1cc2cc(Br)ccc2nc1N1CCOCC1,,,,MIC90,,H37Rv,,2.43 µg/mL
NC(=O)c1cnccn1,,,,MIC,,Isolate 98-29,,900 µg/mL
CCCCCN(CCCCC)CC(=O)OCC1(C)CCCC2(C)C3CCC(C(C)C)=CC3=CCC12,,12.5 µg/mL,,inhibition,,H37Rv,BACTEC,83%
O=C(NNC(=O)c1ccncc1)Nc1ccc(F)c(Cl)c1,21 d,,,MIC100,,My 331/88,broth dilution,125 µM
COc1nc2ccc(Br)cc2cc1C(c1ccccc1)C(O)(CC[N+](C)(C)[O-])c1ccccc1,,,,MIC90,,H37Rv,,16.49 µg/mL
O=c1[nH]nc(-c2ccccc2)c2nc3ccccc3n12,,12.5 µg/mL,,inhibition,,H37Rv,BACTEC,18%
C=CCOc1ccc(/C=C2/NC(=S)NC2=O)cc1,,,,EC50,,H37Rv,,<6.25 µg/mL
O=C([C@@H](O)CO)N1CC=C(c2c(F)cc(N3C[C@H](COc4ccon4)OC3=O)cc2F)CC1,,,T460C Cys154Arg,MIC,,AZD5847-resistant 8.9,,16 µg/mL
NNC(=O)c1ccncc1,,,,MIC,,PMH29:kasB,,0.025 µg/mL
CCOc1ccc2c(N/N=C/c3c(OC)ccc4ccccc34)cc(C)nc2c1,,,,MIC,VERO,H37Rv,,6.25 µg/mL
CC(C)c1ccc(O)c(=O)cc1,,,,MIC,,H37Rv,BACTEC,≥12.8 µg/mL
O=c1oc2ccc(F)cc2c(=O)n1-c1cccc(F)c1,,,,MIC,,CNCTC MY331/88,,16 µM
O=C(CC(=O)N1N=C(c2ccccc2)C(N=Nc2ccc(C(=O)O)cc2)C1=O)Nc1ccc(F)cc1,,,,MIC bound,,H37Rv,BACTEC,>12.5 µg/mL
O=C(NNC(=O)c1ccncc1)Nc1ccc(F)cc1Br,21 d,,,MIC100,,My 331/88,broth dilution,16 µM

A second listing of 5 rows from above:

SMILES,setting,tested at,changes,read-out,cell line,strain,method,result
NC(=S)NNC(=S)S,,,,MIC,,H37Rv,BACTEC,≥12.5 µg/mL
OCc1ccc2ccc3ccc(CO)nc3c2n1,,12.5 µg/mL,,inhibition,,H37Rv,BACTEC,74%
Clc1cc(Cl)c2c(N/N=C/c3ccc4c(c3)OCO4)ccnc2c1,,,,MIC,VERO,H37Rv,,>12.5 µg/mL
NC(=O)c1cnccn1,,,,MIC,,TB206,,400 µg/mL
Fc1cc(Nc2nnc(-c3ccncc3)o2)ccc1Br,21 d,,,MIC100,,My 331/88,broth dilution,>125 µM

Percent inhibition refers to the dose given; in toxicity tests it is the harm to the cells. Two numbers with a dash give a range or band. ECn: concentration that inhibits the pathogen or its effect by n%. A number after MIC or MFC names an inhibition level or a share of isolates. MIC bound comes from a single tested concentration. Blank or dashed fields: not listed here.